The target of assay [1] is P5 presented by H-2^d (mouse).
The target in assay [2] is P5 presented by H-2^b (mouse).
For assay [3], the target named is P1 presented by H-2^b (mouse).
Assay [4] deals with P1 presented by H-2^k (mouse).
Assay [5] deals with P5 presented by H-2^k (mouse).

A value given as a limit tells only on which side of the number the result lay.

Take “T cells of Balb/c (H-2^d) mice primed in vivo with serovar B EBs (cells without a defined receptor)”: the Stimulation Index in assay [1] came out at 4.1 SI.
As for “T cells of C57BL/10 (H-2^b) mice primed in vivo with serovar B EBs (cells without a defined receptor)”, the Stimulation Index in assay [2] was 1.5 SI; in assay [3], < 1 SI.
On to “T cells of CBA (H-2^k) mice primed in vivo with serovar B EBs (cells without a defined receptor)”, for which the Stimulation Index turned out to be 1.45 SI in assay [4] and 1.35 SI in assay [5].

The record behind these values is patent US5882645, “Peptide compounds” (dated 1999).
